# Experimental data as given in ChEMBL document CHEMBL5230124, “Advances of CCR5 antagonists: From small molecules to macromolecules” (Eur J Med Chem, 2020).
# By UniProt entry, the sequences of proteins in these tests, tags left out.
# UniProt P51681, whole entry: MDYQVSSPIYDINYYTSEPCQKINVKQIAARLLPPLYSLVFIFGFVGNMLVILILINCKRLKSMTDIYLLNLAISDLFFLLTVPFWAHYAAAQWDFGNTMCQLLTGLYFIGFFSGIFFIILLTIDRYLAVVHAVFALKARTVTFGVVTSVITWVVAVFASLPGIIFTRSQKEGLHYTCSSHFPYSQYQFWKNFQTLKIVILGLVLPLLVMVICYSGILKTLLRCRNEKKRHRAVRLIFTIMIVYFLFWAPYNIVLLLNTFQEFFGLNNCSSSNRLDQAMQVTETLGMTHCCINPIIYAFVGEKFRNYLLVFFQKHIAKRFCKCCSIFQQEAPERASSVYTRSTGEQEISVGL
# Target: C-C chemokine receptor type 5 (Homo sapiens, UniProt P51681)
# Test: Antagonist activity at CCR5 (unknown origin) expressed in human HOS cells co-expressing HIV-1 FITC-gp120 Bal assessed inhibition of CD4 dependent gp120 Bal binding to CCR5 by western blot analysis
smiles,measurement,value
C[C@@H](N)C(=O)N[C@@H](CO)C(=O)N[C@H](C(=O)N[C@H](C(=O)N[C@H](C(=O)N[C@@H](CC(N)=O)C(=O)N[C@@H](Cc1ccc(O)cc1)C(=O)N[C@H](C(N)=O)[C@@H](C)O)[C@@H](C)O)[C@@H](C)O)[C@@H](C)O,IC50,0.06 nM
